Results of unrelated studies side by side (data: NIAID ChemDB).

All rows: whole-cell or culture tests; organism: HIV-1

An empty or dashed field is not shown. Fold resistance: result on the changed form divided by that on wild type. Conditions beyond the fields shown may differ between rows. ECn: concentration that inhibits the pathogen or its effect by n%.

SMILES | strain | mutations | cell line | method | measure | value
O=C1Nc2ccc(Cl)cc2[C@@](C#CC2CC2)(C(F)(F)F)N1 |  | RT-Y188C |  |  | EC90 | <0.012 µM
COc1ccc(S(=O)(=O)N(CC(C)C)C[C@@H](O)CCN(CC2CCCC2)S(=O)(=O)C2CCS(=O)(=O)C2)cc1 | IIIB |  | CEM | p24 | EC90 | 1 µM
O=C1Nc2ccc(Cl)cc2[C@@](/C=C/C2CC2)(C(F)(F)F)N1 |  | RT-Y181C |  |  | fold resistance | <6
CC(C)CN(CC(O)CNc1cscc1S(=O)(=O)c1ccccc1)S(=O)(=O)c1ccccc1 | IIIB |  | CEM | p24 | EC90 | 1 µM
Cc1cc(C)cc(C(=O)c2cc(Cl)ccc2OCC(=O)Nc2ccc(S(N)(=O)=O)cc2C)c1 | HXB2 | RT-P236L | HeLa + HELA CD4+ | β-galactosidase | fold resistance | ~1
CCC(=O)c1ccc(F)c([C@@H]2C[C@@H]2NC(=O)Nc2ccc(C#N)cn2)c1O | LAI | NNRTI-resistant (RT Y188H) | TZM-bl | β-galactosidase / luminescence | fold resistance | 1.7
C/C=C/CSc1cc(NC(=S)c2ccsc2C)ccc1Cl | 4xAZT(RT-D67N K70R T215Y K219Q) | RT-D67N K70R T215Y K219Q | CEM + CEM-SS | p24 | fold resistance | 0.5
Cc1cc(S(N)(=O)=O)ccc1NC(=O)COc1ccc(Cl)cc1C(=O)c1cc(F)cc(F)c1 | HXB2 | RT-Y181C | HeLa + HELA CD4+ | β-galactosidase | fold resistance | ~1
Nc1ccc(S(=O)(=O)N(CC2CCCC2)C[C@@H](O)CN(CCc2ccccc2)C(=O)O[C@H]2CCOC2)cc1 | IIIB |  | CEM | p24 | EC90 | 0.1 µM
Cc1cc(S(N)(=O)=O)ccc1NC(=O)COc1ccc(Cl)cc1C(=O)c1cccc(C#N)n1 | HXB2 (RT-K103N Y181C) Recombinant | RT-K103N Y181C | HeLa + HELA CD4+ | β-galactosidase | fold resistance | ~1
O=C(O)c1cc(-n2cccc2)ccc1Cl | IIIB X4 CLADE B |  | MT-2 | p24 | EC90 | 5.85 µM
Cc1cc2[nH]cnc2cc1NC(=O)COc1ccc(Cl)cc1C(=O)c1cc(F)cc(C(F)(F)F)c1 | HXB2 | RT-V106I | HeLa + HELA CD4+ | β-galactosidase | fold resistance | ~1
O=C(c1ccccc1)N(CCc1ccccc1)C[C@H](O)CN(CC1CCCC1)S(=O)(=O)CC1CCS(=O)(=O)CC1 | IIIB |  | CEM | p24 | EC90 | 1 µM
Cc1cc2cn[nH]c2cc1NC(=O)COc1ccc(Cl)cc1C(=O)c1cccc(C#N)c1 | HXB2 | RT-K103N | HeLa + HELA CD4+ | β-galactosidase | fold resistance | ~1
COc1ccc(S(=O)(=O)N(CC(C)C)C[C@@H](O)CCN(CC2CCCC2)S(=O)(=O)CC2CS(=O)(=O)CC2O)cc1 | IIIB |  | CEM | p24 | EC90 | 1 µM

Repeating the first 2 entries:

SMILES	strain	mutations	cell line	method	measure	value
O=C1Nc2ccc(Cl)cc2[C@@](C#CC2CC2)(C(F)(F)F)N1		RT-Y188C			EC90	<0.012 µM
COc1ccc(S(=O)(=O)N(CC(C)C)C[C@@H](O)CCN(CC2CCCC2)S(=O)(=O)C2CCS(=O)(=O)C2)cc1	IIIB		CEM	p24	EC90	1 µM